# Results published in ChEMBL document CHEMBL3822423 (J Med Chem, 2016).
# Tests used:
# Staphylococcus aureus [1] = assay: Ratio of test compound binding affinity to norfloxacin binding affinity to methicillin-resistant Staphylococcus aureus double stranded genomic DNA
# Staphylococcus aureus [2] = assay: Binding affinity to methicillin-resistant Staphylococcus aureus double stranded genomic DNA by spectroscopic analysis
compound,measurement,setting,value
CCn1cc(-c2csc(N)n2)c(=O)c2cc(N3CCCC3)c(Cl)cc21,Ratio,Staphylococcus aureus [1],1.5
same,K,Staphylococcus aureus [2],3.89 ×10³ L/mol
